Reference: PubChem BioAssay AID1224833 (University of Georgia, 2016)
Assay: 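Host factors restraining rotavirus as candidate antiviral genes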 (primary screen). Cells: monkey MA104 kidney cells. Reagent: siRNA pool against human genes, 50 nM. Timing: 48 h knock-down before infection; read 24 h after infection. Conditions: infection with rotavirus strain RV3 two days after transfection; infectious dose for this stage not given. Measured: 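z-score of rotavirus antigen signal per well, from a fluorescent immunoassay, relative to non-targeting control wells on the same plate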. Scale: z-score vs non-targeting control: higher = more rotavirus replication than with non-targeting control. Active means: In these data the active calls have z-score vs non-targeting control at about -1 or lower, or at about 1 or higher. Calls: active = z-score beyond 1 either way; inactive = z-score within 1 of zero.
Here is an unselected part of about 12,000 reagents. Of all reagents, about 5,600 (46%) got an active call. 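Active calls cover z-scores past 1 in both directions, so they include lowered as well as raised rotavirus replication.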

| z-score vs non-targeting control | activity call | Target gene |
| --- | --- | --- |
| 1.35 | active | CCND1 |
| -1.46 | active | FAM133B |
| -0.028 | inactive | ZP3 |
| 0.161 | inactive | DNAJC28 |
| -1.71 | active | PC |
| -2 | active | FADS1 |
| -2.42 | active | TTR |
| 0.0953 | inactive | APOBR |
| -0.716 | inactive | EXOC4 |
| -1.21 | active | SSTR1 |
| -0.39 | inactive | ZNF611 |
| -0.62 | inactive | AQP10 |
| -0.124 | inactive | PAFAH1B1 |
| 0.274 | inactive | DVL2 |
| -0.1 | inactive | SPINT3 |
| -1.5 | active | MYOZ1 |
| -0.942 | inactive | MARS2 |
| -0.196 | inactive | OR8B12 |
| 1.29 | active | LMO4 |
| -1.45 | active | AARS1 |
| 0.847 | inactive | CRISP2 |
| -0.145 | inactive | BTG3 |
| -0.603 | inactive | CT47A8 |
| 1.83 | active | PPP1R14C |
| -0.512 | inactive | CLVS2 |
| -0.228 | inactive | ARHGAP32 |
| 1.66 | active | GPR15LG |
| -2.5 | active | SLC28A2 |
| -0.157 | inactive | ZNF439 |
| -0.663 | inactive | ADCY8 |
| 0.691 | inactive | SF3A1 |
| 0.758 | inactive | SFT2D1 |
| 0.694 | inactive | PCDHB1 |
| -0.552 | inactive | SIGLEC5 |
| 1.41 | active | DCTN6 |
| 0.606 | inactive | COG3 |
| -1.47 | active | OR2T27 |
| -1.08 | active | UQCRH |
| -2.25 | active | TNNI2 |
| 0.688 | inactive | CREG2 |
| 1.29 | active | EAF2 |
| -0.832 | inactive | E2F2 |
| 0.513 | inactive | EPG5 |
| 0.168 | inactive | SEMA6A |
| -0.0819 | inactive | ZNF215 |

Individual results from the entries so far.
Under “activity call”, FAM133B is entered as active
Under “activity call”, ARHGAP32 shows inactive
SPINT3, activity call → inactive
Under “activity call”, ZNF215 is entered as inactive
Result for MYOZ1 under “z-score vs non-targeting control”: -1.5
